{"source": "paper PMC4718804", "about": "(eLife, 2015)", "system": "CHO-7 cells", "type": "cell-based, hamster", "data": [{"smiles": "CCN(CC)CCOC1CCC2(C)C(=CCC3C4CCC(=O)C4(C)CCC32)C1", "note": "(stereo not drawn) [U18666A, 3-beta-[2-(diethylamino)ethoxy]androst-5-en-17-one, reference compound]", "values": [{"measurement": "[14C]triglyceride content", "value": 117, "unit": "nmol/hr/ mg protein"}, {"measurement": "content of [14C]triglycerides", "value": 57, "unit": "nmol/hr/mg protein"}]}, {"smiles": "C#CCOc1ccc(C(=O)c2ccc(C(=O)OCCN(CC)CCOC3CCC4(C)C(=CCC5C6CCC(=O)C6(C)CCC54)C3)cc2)cc1", "note": "(stereo not shown) [U-X]", "values": [{"measurement": "content of [14C]triglycerides", "value": 55, "unit": "nmol/hr/mg protein"}]}, {"smiles": "CCN(CC)CCCC(C)Nc1ccnc2cc(Cl)ccc12", "note": "(stereo not shown) [chloroquine, reference compound]", "values": [{"measurement": "content of [14C]triglycerides", "value": 81, "unit": "nmol/hr/mg protein"}]}]}
